In PMC7401249 (Marine Drugs, 2020):
Entries after “also recorded” stand apart in the source; their conditions may differ.

Sequences of proteins named here, by UniProt entry; tags and fusion partners are left off. A change or cut given only in a name is not applied to a line headed by its entry.
UniProt O95180: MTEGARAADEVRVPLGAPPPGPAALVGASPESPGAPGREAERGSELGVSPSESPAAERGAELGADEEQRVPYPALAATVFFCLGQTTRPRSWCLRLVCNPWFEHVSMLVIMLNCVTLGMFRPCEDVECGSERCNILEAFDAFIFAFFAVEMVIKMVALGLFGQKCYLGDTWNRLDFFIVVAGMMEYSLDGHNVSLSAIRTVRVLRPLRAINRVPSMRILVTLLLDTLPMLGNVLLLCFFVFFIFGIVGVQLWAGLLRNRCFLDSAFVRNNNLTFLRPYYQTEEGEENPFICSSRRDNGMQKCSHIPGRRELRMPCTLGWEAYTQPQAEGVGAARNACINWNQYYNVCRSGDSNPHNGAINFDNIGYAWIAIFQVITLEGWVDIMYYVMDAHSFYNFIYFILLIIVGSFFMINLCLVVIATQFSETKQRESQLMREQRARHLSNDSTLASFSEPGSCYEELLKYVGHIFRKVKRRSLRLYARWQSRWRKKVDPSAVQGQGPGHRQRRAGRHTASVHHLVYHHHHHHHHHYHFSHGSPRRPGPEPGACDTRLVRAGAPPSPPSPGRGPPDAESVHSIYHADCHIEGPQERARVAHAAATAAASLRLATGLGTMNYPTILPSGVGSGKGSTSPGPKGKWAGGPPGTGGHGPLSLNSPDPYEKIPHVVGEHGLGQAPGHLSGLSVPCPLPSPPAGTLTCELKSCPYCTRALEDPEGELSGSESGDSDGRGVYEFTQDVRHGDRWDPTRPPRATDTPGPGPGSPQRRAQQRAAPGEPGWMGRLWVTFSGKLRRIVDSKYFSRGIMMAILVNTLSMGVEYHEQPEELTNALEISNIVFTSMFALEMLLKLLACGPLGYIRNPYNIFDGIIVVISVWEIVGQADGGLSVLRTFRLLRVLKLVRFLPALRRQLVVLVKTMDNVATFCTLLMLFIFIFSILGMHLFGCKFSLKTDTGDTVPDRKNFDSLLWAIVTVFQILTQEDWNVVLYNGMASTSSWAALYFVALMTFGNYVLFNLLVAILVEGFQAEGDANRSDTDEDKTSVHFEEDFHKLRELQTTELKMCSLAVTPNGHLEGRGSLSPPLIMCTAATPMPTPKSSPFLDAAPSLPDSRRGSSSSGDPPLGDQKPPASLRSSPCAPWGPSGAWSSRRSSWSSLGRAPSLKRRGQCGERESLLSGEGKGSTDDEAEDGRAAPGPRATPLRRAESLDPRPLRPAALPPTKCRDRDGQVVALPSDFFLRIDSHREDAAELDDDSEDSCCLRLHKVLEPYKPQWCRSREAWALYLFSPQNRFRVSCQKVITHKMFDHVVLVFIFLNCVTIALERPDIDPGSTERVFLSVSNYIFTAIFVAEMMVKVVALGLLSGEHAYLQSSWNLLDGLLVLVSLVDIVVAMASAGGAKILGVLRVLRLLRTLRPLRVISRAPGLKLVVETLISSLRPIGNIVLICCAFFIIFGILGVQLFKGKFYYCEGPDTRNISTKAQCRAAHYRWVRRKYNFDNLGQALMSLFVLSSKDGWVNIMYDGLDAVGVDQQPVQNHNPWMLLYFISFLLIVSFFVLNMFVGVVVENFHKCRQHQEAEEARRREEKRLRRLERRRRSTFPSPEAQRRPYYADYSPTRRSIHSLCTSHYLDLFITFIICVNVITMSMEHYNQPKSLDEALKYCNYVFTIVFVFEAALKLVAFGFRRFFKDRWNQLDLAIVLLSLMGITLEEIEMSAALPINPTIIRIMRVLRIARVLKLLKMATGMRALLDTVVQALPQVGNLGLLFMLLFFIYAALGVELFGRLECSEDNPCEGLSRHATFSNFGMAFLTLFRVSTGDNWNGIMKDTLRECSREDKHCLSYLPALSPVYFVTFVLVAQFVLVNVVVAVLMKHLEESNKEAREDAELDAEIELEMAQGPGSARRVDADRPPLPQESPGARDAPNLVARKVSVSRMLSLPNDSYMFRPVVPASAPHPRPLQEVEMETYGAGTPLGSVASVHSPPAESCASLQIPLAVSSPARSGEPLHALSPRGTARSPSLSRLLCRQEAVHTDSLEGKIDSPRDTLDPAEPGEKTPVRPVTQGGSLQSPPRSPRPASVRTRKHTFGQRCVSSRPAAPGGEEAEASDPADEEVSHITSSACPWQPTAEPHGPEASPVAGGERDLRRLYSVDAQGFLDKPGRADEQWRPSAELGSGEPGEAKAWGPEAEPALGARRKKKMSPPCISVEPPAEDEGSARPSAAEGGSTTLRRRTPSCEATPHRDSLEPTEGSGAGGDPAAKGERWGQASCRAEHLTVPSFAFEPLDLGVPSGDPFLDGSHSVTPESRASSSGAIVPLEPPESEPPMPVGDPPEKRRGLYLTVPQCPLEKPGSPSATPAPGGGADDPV

What was measured:
lobsters = details: ref [1]; cited from earlier work
human CaV3.3 = experiment: Whole-cell patch-clamp (QPatch 16 X), CaV3.3; details: n = 6, 10 µM in representative trace, Vmax −10 mV, holding −90 mV
mouse NaV1.7 = experiment: Sodium channel FLIPR assay, transiently transfected NaV1.7 HEK293T cells; details: 10 µM, FLIPR red membrane potential dye, veratridine 40–50 µM agonist, pH 7.4, n = 2, p = 0.29
human CaV3.2 = human CaV3.2 (Homo sapiens, UniProt O95180); experiment: Whole-cell patch-clamp (QPatch 16 X), CaV3.2
insects (Sarcophaga) = details: ref [2]; cited from earlier work
fish (Cambusia) = details: ref [2]; cited from earlier work
crustaceans (Porcellio) = details: ref [2]; cited from earlier work
rat brain NaVs = details: cited from earlier work
[1] = tested on: human NaV channels endogenously expressed in SH-SY5Y cells (NaV1.2 and NaV1.7); experiment: Sodium channel FLIPR assay, SH-SY5Y cells; details: 5 µM, FLIPR red membrane potential dye, veratridine 40–50 µM agonist, pH 7.4, n = 3, p = 0.37
molluscs (Patella) = details: ref [2]; cited from earlier work
mammalian NaV channels = details: ref [4]; cited from earlier work
snails = details: ref [1]; cited from earlier work
human CaV3.1 = experiment: Whole-cell patch-clamp (QPatch 16 X), CaV3.1

CC[C@H](C)[C@@H]1NC(=O)[C@@H]2CSSC[C@@H]3NC(=O)[C@H](CCSC)NC(=O)[C@H](CCC(=O)O)NC(=O)CNC(=O)[C@H](CO)NC(=O)[C@H](CCC(N)=O)NC(=O)[C@H](CCCCN)NC(=O)[C@@H](NC(=O)[C@@H](N)Cc4c[nH]c5ccccc45)CSSC[C@H](NC(=O)[C@H](CSSC[C@@H](C(=O)N[C@H](C(=O)O)[C@@H](C)O)NC(=O)[C@H](C(C)C)NC(=O)[C@H](CC(C)C)NC(=O)[C@H](C(C)C)NC1=O)NC(=O)[C@H](CC(N)=O)NC(=O)[C@H](CCC(N)=O)NC(=O)[C@H](CC(=O)O)NC(=O)[C@H](CC(C)C)NC(=O)[C@H](CC(C)C)NC(=O)[C@H](CC(N)=O)NC3=O)C(=O)N[C@@H](CC(=O)O)C(=O)NCC(=O)N[C@@H](Cc1ccc(O)cc1)C(=O)N2
posture of lobsters following injection (lobsters): dominant posture | effect on CaV3.3 current (human CaV3.3): little effect | effect on calcium influx in HEK cells transiently expressing mouse NaV1.7 (mouse NaV1.7): failed to significantly modify calcium influx | I–V relationship shift, CaV3.2 (human CaV3.2; 0.1 µM, n = 4, p = 0.21): did not shift the I–V relationship | selectivity among CaV3.x (human CaV3.2; CaV3.1, 3.2 and 3.3, QPatch): preferentially inhibits CaV3.2 current | Hill coefficient (CaV3.2) (human CaV3.2; QPatch, recombinant hCaV3.2, concentration response curve, means ± SEM, n = 5): -1.01 ± 0.37 | effect on CaV3.2 current (human CaV3.2; high nanomolar concentrations, QPatch, n = 5): partially inhibited CaV3.2 | IC50 (human CaV3.2; read-out: IC50 (CaV3.2), QPatch, recombinant hCaV3.2, HEK293, 200 ms steps to Vmax from −90 mV, means ± SEM, n = 5): 240 nM | paralytic effect in insects (Sarcophaga) (insects (Sarcophaga)): insects (Sarcophaga) | paralytic effect in fish (Cambusia) (fish (Cambusia)): not in fish | paralytic effect in crustaceans (Porcellio) (crustaceans (Porcellio)): crustaceans (Porcellio) | functional effect on rat brain NaVs (rat brain NaVs; rat brain NaVs, ref [4]): lack of functional effects on rat brain NaVs | binding to rat brain NaVs (rat brain NaVs; sites adjacent to the binding sites of CsTx and GPT, ref [4],[5],[6]): binds | effect on human NaV responses [1]: did not produce any detectable effect | paralytic effect in molluscs (Patella) (molluscs (Patella)): paralytic effect | functional effect of binding to mammalian NaV channels (mammalian NaV channels): non-functional | convulsive-like activity in snails (snails): convulsive-like activity in snails | current enhancement, CaV3.1 (human CaV3.1; 1 µM, QPatch, Vmax at −25 mV, means ± SEM, n = 5, p = 0.04): 10.0% ± 3.9% | I–V relationship shift, CaV3.1 (human CaV3.1; 1 µM, n = 5, p = 0.63): not accompanied by shifts in the I–V relationship | effect on CaV3.1 current (human CaV3.1; QPatch, n = 5, 1.11 µM and 10 µM in representative traces): promoted the opening of CaV3.1; also recorded: enhances CaV3.1 current at higher concentrations; also recorded: activating activity on CaV3.1 at µM concentrations
